# Reference: patent US20260242449A1
# B1: BiS13 (bispecific antibody)
# heavy: QMQLQESGPGLVKPGETLSLTCSVSGASISSSYWSWLRETPGKGLEWIGYTHHSGDTNYAPSLKSRVHLGLHPSKNQVSLSLTSVTAADTAVYYCARTLHGRRIYGVVAFNEYYTYFYWPTWGKGTQVTVSSASTKGPSVFPLAPSSKSTSGGTAALGCLVKDYFPEPVTVSWNSGALTSGVHTFPAVLQSSGLYSLSSVVTVPSSSLGTQTYICNVNHKPSNTKVDKKV[human IgG1 Fc with changes omitted]
# light: ALTQPRSVSASPGQSVTISCTGTHNLVSWCQHQPGRAPKLLIYDFNKRPSGVPDRFSGSGSGGTASLTITGLQDDDDAEYFCWAYEAFGGGTKLTVLGQGGGGSGGGGSGGGGSADLVQSGAVVKKPGDSVRISCEAQGYRFPDYIIHWIRRAPGQGPEWMGWMNPMGGQVNIPWKFQGRVSMTRDTSIETAFLDLRGLKSDDTAVYYCVRDRSNGSGKRFESSNWFLDLWGRGTAVTIQSGGGGSGGGGSGGGGSGGGGSGGGGSDISVAPGETVRITCGGESIGSRAVQWYQHRPGQAPRLIIYNNQDRPPGIPERFSGSPDIDFGTTATLTISNVEAGDEATYYCHIWDSRRPTNWELGPGTTLTVLGQPKAAPSVTLFPPSSEELQANKATLVCLISDFYPGAVTVAWKADSSPVKAGVETTTPSKQSNNKYAASSYLSLTPEQWKSHKSYSCQVTHEGSTVEKTVAPTECS
# Molecular target: subset of 13 pseudoviruses
# Experiment: cell-based or functional assay
binder,measurement,value
B1,fold improvement of median IC80 against the parental antibodies used in combination,> 13 fold
